Measured values from several laboratories, pooled; numbers as filed in NIAID ChemDB.

Common to all: tests in culture; agent: HIV-1; read by: p24 / ELISA; measure: inhibition

Blank or dashed fields: not listed here. Lines come from different laboratories, so protocols vary. Percent inhibition refers to the dose given; in toxicity tests it is the harm to the cells.

smiles	strain	tested at	cell line	value
COC(=O)c1cn2c(ccc3ccccc32)c1C(=O)OC	IIIB	10 µM	PBL	5%
CC1=C(C(=O)O)C(c2ccco2)NC(=O)N1	-	100 µM	HEK293T	41.2%
Cc1c2ccnc(Cl)c2cc2c3cn(C)ccc-3nc12	GAR (resistant strain)	1 µM	Macrophages	100%
O=C1c2c(O)c(O)cc(=O)n2CCN1Cc1ccc(F)c(Cl)c1	-	0.25 µM	MT-4	≥95%
O=c1c(-c2nnc(SCc3ccccc3Cl)o2)c[nH]c2c(-c3ccccc3)cccc12	NL4-3	100 µM	HeLa	25%
CCOC(=O)c1cn2c(c1O)C(=O)N(Cc1ccc(Cl)c(Cl)c1)CC2	IIIB	0.31 µM	MT-4	>95%
COC(=O)Cc1[nH]cc(-c2ccccc2)c1C(=O)OC	IIIB	10 µM	PBL	14%
CC1=C(C(=O)O)C(c2ccc(F)cc2)NC(=O)N1	-	100 µM	HEK293T	28.8%
CCOC(=O)C1=C(C)N(c2ccc(C(=O)O)cc2)C(C)=C(C(=O)OCC)C1c1ccco1	NL4-3	100 µM	HEK293T + MT-2	80.5%
CC1=C(C(=O)O)C(c2ccccc2Cl)NC(=O)N1	-	100 µM	HEK293T	40.2%
O=C(O)c1c(-c2ccccc2)[nH]c2ccccc2c1=O	NL4-3	100 µM	HeLa	<10%
CC1=C(C(=O)O)C(c2cccc(N)c2)NC(=O)N1	-	100 µM	HEK293T	41.2%
COc1ccnc2[nH]cc(C(=O)C(=O)N3CCN(C(=O)c4ccccc4)C[C@H]3C)c12	NL4-3	100 µM	HEK293T + MT-2	100%
Cc1ccccc1CSc1nnc(-c2c[nH]c3c(-c4ccccc4)cccc3c2=O)o1	NL4-3	100 µM	HeLa	57%
CC1=C(C(=O)OCc2ccccc2)C(c2ccc(N(C)C)cc2)NC(=O)N1	-	100 µM	HEK293T	5.7%
CCOC(=O)c1cn2c(c1O)C(=O)N(Cc1ccccc1)CC2	IIIB	20 µM	MT-4	>95%
CC1=C(C(=O)O)C(/C=C/c2ccccc2)NC(=O)N1	-	100 µM	HEK293T	4.5%
C[C@H](NC(=O)[C@]12CCC(C)(C)C[C@H]1C1=CC[C@@H]3[C@@]4(C)C[C@@H](O)[C@H](O)C(C)(C)[C@@H]4CC[C@@]3(C)[C@]1(C)CC2)C(=O)NCC(=O)O	pNL4-3	25 µM	MT-2	-84.8%
O=C(Cn1c(=O)oc2ccccc21)NNC(=O)c1cccc(F)c1	NL4-3	100 µM	HeLa	5%
CC#C[C@]1(O)CC[C@H]2[C@@H]3CCC4=CC(=O)CCC4=C3[C@@H](c3ccc(N(C)C)cc3)C[C@@]21C	89.6	10 µM	PBMC	>95%
CCOC(=O)c1cn2c(c1O)C(=O)N(Cc1ccc(F)c(Cl)c1)CC2	IIIB	0.94 µM	MT-4	>95%
CC1=C(C(=O)OCc2ccccc2)C(c2ccccc2)NC(=O)N1	-	100 µM	HEK293T	23.7%
COC(=O)C1=C(C)N(c2ccc(C(=O)O)cc2)C(C)=C(C(=O)OC)C1c1cccs1	NL4-3	100 µM	HEK293T + MT-2	76.42%
O=C(O)c1cn(Cc2ccccc2F)c2c(ccc3ccccc32)c1=O	NL4-3	100 µM	HeLa	<10%
CCn1c(C)c(C(=O)OC)c(C(=O)OC)c1CC(C)C	IIIB	10 µM	PBL	0%
O=c1c(-c2nnc(SCc3cccc(F)c3)o2)c[nH]c2c(-c3ccccc3)cccc12	NL4-3	100 µM	HeLa	31%
O=C1c2c(O)c(O)cc(=O)n2CCN1Cc1cccc(Cl)c1	-	0.5 µM	MT-4	≥95%
C[C@H](NC(=O)CCCCCNC(=O)[C@]12CCC(C)(C)C[C@H]1C1=CC[C@@H]3[C@@]4(C)C[C@@H](O)[C@H](O)C(C)(C)[C@@H]4CC[C@@]3(C)[C@]1(C)CC2)C(=O)O	pNL4-3	10 µM	MT-2	-7%
O=c1oc2ccccc2n1Cc1nnc(Nc2ccc(F)cc2)s1	NL4-3	100 µM	HeLa	31%
COC(=O)CCCNC(=O)[C@]12CCC(C)(C)C[C@H]1C1=CC[C@@H]3[C@@]4(C)C[C@@H](O)[C@H](O)C(C)(C)[C@@H]4CC[C@@]3(C)[C@]1(C)CC2	pNL4-3	10 µM	MT-2	67.5%
O=c1c(-c2nnc(SCc3ccccc3)o2)c[nH]c2c(-c3ccccc3)cccc12	NL4-3	100 µM	HeLa	20%
O=C(Cn1c(=O)oc2ccccc21)NNC(=O)c1ccccc1	NL4-3	100 µM	HeLa	33%
O=C(O)c1cn(Cc2cccc(F)c2)c2c(ccc3ccccc32)c1=O	NL4-3	100 µM	HeLa	<10%
CC1(C)CC[C@]2(C(=O)O)CC[C@]3(C)C(=CC[C@@H]4[C@@]5(C)C[C@@H](O)[C@H](O)C(C)(C)[C@@H]5CC[C@]43C)[C@@H]2C1	pNL4-3	25 µM	MT-2	93.3%
CCCCn1c(C)c(C(=O)OC)c(C(=O)OC)c1C	IIIB	10 µM	PBL	22%
O=C(O)c1cn(Cc2ccc(F)cc2)c2c(ccc3ccccc32)c1=O	NL4-3	100 µM	HeLa	23%
CCCCC/C=C/C=C1/C(=O)C=CC1C/C=C\CCCC(=O)O	-	0.8 µM	U-937	53%
COC(=O)c1cn2c(c1C(=O)OC)Cc1cc3c(cc1C2)OCO3	IIIB	10 µM	PBL	5%
O=C(Cn1c(=O)oc2ccccc21)NNC(=S)c1ccc(F)cc1	NL4-3	100 µM	HeLa	81%
CCCc1[nH]c2ccccc2c(=O)c1C(=O)O	NL4-3	100 µM	HeLa	<10%
CCOc1ccc(Br)cc1-c1oc2ccccc2c(=O)c1O	BaL	5 µM	PM1	0%
O=c1c(-c2nnc(SCc3ccccc3F)o2)c[nH]c2c(-c3ccccc3)cccc12	NL4-3	100 µM	HeLa	48%
Cc1ccc(C(=S)NNC(=O)Cn2c(=O)oc3ccccc32)cc1	NL4-3	100 µM	HeLa	42%
CC1(C)CC[C@]2(C(=O)NCCCC(=O)O)CC[C@]3(C)C(=CC[C@@H]4[C@@]5(C)C[C@@H](O)[C@H](O)C(C)(C)[C@@H]5CC[C@]43C)[C@@H]2C1	pNL4-3	25 µM	MT-2	6.2%
Cc1ccc(Nc2nnc(Cn3c(=O)oc4ccccc43)s2)cc1	NL4-3	100 µM	HeLa	72%
COC(=O)c1c(C(=O)OC)c2n(c1C)C(c1ccc(OC)cc1)SC2	IIIB	1 µM	PBL	5%

The last 3 rows once more:

smiles	strain	tested at	cell line	value
CC1(C)CC[C@]2(C(=O)NCCCC(=O)O)CC[C@]3(C)C(=CC[C@@H]4[C@@]5(C)C[C@@H](O)[C@H](O)C(C)(C)[C@@H]5CC[C@]43C)[C@@H]2C1	pNL4-3	25 µM	MT-2	6.2%
Cc1ccc(Nc2nnc(Cn3c(=O)oc4ccccc43)s2)cc1	NL4-3	100 µM	HeLa	72%
COC(=O)c1c(C(=O)OC)c2n(c1C)C(c1ccc(OC)cc1)SC2	IIIB	1 µM	PBL	5%